Potato spindle tuber viroid, loop 6: variant abundance in plants

PSTVd intermediate strain, loop 6: wild type UGACCGCGAG, pool pattern UNNNCGNNNG; upper and lower strand joined, each 5' to 3', the first 5 letters being the upper strand, closing pairs included.

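A pool of all variants was put on leaves of three Nicotiana benthamiana plants. Samples came from the inoculated region at 5 days, the leaf margin at 10 and upper systemic leaves at 12.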

Values are reads per thousand in the sample; higher means more abundant, 0 means not found.
Each value is the mean of three plants.
"Pool" is the share in the plasmid pool used as inoculum, on the same scale.
The inoculated region was read from the minus strand, the other sites from the plus strand.
Wild type was 20.7 per thousand in the pool and the most common sequence in every sample (inoculated region 195, 198, 203; leaf margin 629, 591, 734; systemic leaves 942, 870, 868).
The authors trace changes outside the varied positions to PCR and sequencing errors or to mutation in the plant; presence does not show that a variant is infectious alone.
With 36,220-57,551 reads a sample, very low values are single reads.

| sequence | pool | inoculated region | leaf margin | systemic leaves |
|---|---|---|---|---|
| UCGACGGGAG | 0.209 | 0.594 | 0.0739 | 0 |
| UCCACGCGUG | 0.118 | 0.108 | 0.00920 | 0 |
| UGGGCGUUCG | 0.170 | 0.112 | 0.0276 | 0 |
| UGCCCGGAGG | 0.105 | 0.0775 | 0.00920 | 0 |
| UGAGCUCGAG | 0.0131 | 0 | 0 | 0 |
| UACACGUUUG | 0.366 | 0.107 | 0.00773 | 0 |
| UUCACGCUAG | 0.118 | 0.112 | 0.0184 | 0 |
| GGACCGUGAG | 0.0261 | 0.506 | 0.0921 | 0 |
| UGAACGUUGG | 0.170 | 0.144 | 0.00773 | 0 |
| UCUGCGCGGG | 0.196 | 0.0771 | 0.0184 | 0 |
| UAGUCGUAAG | 0.118 | 0.0889 | 0 | 0 |
| UAAACGGCCG | 0.131 | 0.715 | 0.0868 | 0.0202 |
| UGCCCGAGGG | 0.209 | 0.0719 | 0.0169 | 0 |
| UGCUCGUAGG | 0.248 | 0.107 | 0 | 0 |
| UGCUCUGCAG | 0.0131 | 0 | 0 | 0 |
| UGUGCGUCAG | 0.340 | 0.113 | 0 | 0 |
| UAUUCGGAUG | 0.340 | 0.654 | 0.0921 | 0 |
| UCAGCGGGAG | 0.157 | 0.639 | 0.0599 | 0.0204 |
| UAUACGUACG | 0.248 | 0.0829 | 0 | 0 |
| UAUGCGCUAG | 0.131 | 0.112 | 0 | 0 |
| UAACCGGCGG | 0.209 | 0.0836 | 0 | 0 |
| UUAACGCCCG | 0.314 | 0.556 | 0.108 | 0 |
| UACCCGUCUG | 0.196 | 0.0715 | 0.0155 | 0 |
| UGCGCGAGGG | 0.170 | 0.144 | 0 | 0 |
| UGACCGCUCG | 0.196 | 0.237 | 0.329 | 0.223 |
| GGACCGGACG | 0.0131 | 0.0118 | 0.00773 | 0 |
| UACGCGUAUG | 0.222 | 0.113 | 0.0460 | 0 |
| UCGCCGGCGG | 0.183 | 0.114 | 0 | 0.00673 |
| UGCUCGUCCG | 0.288 | 0.0594 | 0 | 0 |
| UCCUCGCAAG | 0.144 | 0.120 | 0.00773 | 0 |
| UCACCGCCCG | 0.261 | 0.0597 | 0.00773 | 0.0269 |
| UGCCCGAUAG | 0.183 | 0.107 | 0.0935 | 0 |
| UCAGCGGUAG | 0.222 | 0.0954 | 0.00773 | 0 |
| UAAUCGACUG | 0.366 | 0.101 | 0 | 0 |
| UAUUCGAAUG | 0.405 | 0.0831 | 0 | 0 |

The first 4 entries again:

sequence,pool,inoculated region,leaf margin,systemic leaves
UCGACGGGAG,0.209,0.594,0.0739,0
UCCACGCGUG,0.118,0.108,0.00920,0
UGGGCGUUCG,0.170,0.112,0.0276,0
UGCCCGGAGG,0.105,0.0775,0.00920,0

The measurements come from Wu et al. 2024 (doi:10.1371/journal.ppat.1012142).